This is an account of results in ChEMBL document CHEMBL4342421, “Current scenario of tetrazole hybrids for antibacterial activity” (Eur J Med Chem, 2019).

For one experiment, the system named is Escherichia coli. Nature of the experiment: Synergistic antibacterial activity against Escherichia coli in presence of Trimethoprim.
The subject of another experiment is Staphylococcus aureus. Nature of the experiment: Synergistic antibacterial activity against Staphylococcus aureus in presence of Trimethoprim.

A word on the MIC: it is the least concentration at which growth counts as inhibited.

Turning to `c1cc(-c2nn[nH]n2)ccc1-c1nn[nH]n1`, the MIC in the experiment with Escherichia coli was 0.98 µg/mL; with Staphylococcus aureus it was 31.3 µg/mL.
